# PubChem BioAssay AID1259414, Drosophila RNAi Screening Center – 2018
# Aim: 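Genome-wide screen for host control of endosymbiont load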 (primary screen)
# System: Drosophila JW18 cells infected with Wolbachia
# Reagents: long dsRNA against Drosophila genes, 0.25 µg dsRNA per well of a 384-well plate
# Duration: 5 days
# Conditions: cells persistently infected with Wolbachia before knock-down; no added drug
# Measurement: 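Automated imaging of bacterial rRNA staining divided by host cell count, reported as plate-normalised robust z-score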
# Scale: Wolbachia per cell robust z: higher = more Wolbachia per host cell than the plate typical
# Active means: 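Active if absolute robust z reaches 1.5 in two or more of three replicates, leaving out multi- or no-target dsRNAs, genes unexpressed in JW18 and A1 wells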
# The deposit covers about 24,000 reagents; shown is a random part of those that have a named target and a result. Over the whole deposit, about 1,210 (5%) are marked active. 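Inactive calls also include excluded dsRNAs with several or no targets, genes unexpressed in JW18, and well A1, regardless of score.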 Reagents against one gene are numbered here. Names joined by + are all predicted targets of the reagent.
"Wolbachia per cell robust z, rep 1","Wolbachia per cell robust z, rep 2","Wolbachia per cell robust z, rep 3",activity call,predicted target,reagent
0.776,0.694,-0.0999,inactive,Ranbp16,1
0.676,-0.167,0.551,inactive,CG42374 + Mettl5,1
0.452,-0.924,-1.88,inactive,CG15922,1
0.816,1.23,-3.25,inactive,odd,1
-0.961,-0.184,-0.488,inactive,EMC5,1
-7.35,-1.11,-0.0243,inactive,Uqcc1 + CG9948,1
0.807,0.642,-1.98,inactive,CG6005,1
-4.63,0.447,0.234,inactive,CG32473,1
0.483,-0.582,-0.115,inactive,CG32473,2
1.05,0.56,1.11,inactive,dpr21,1
-4.29,0.91,-2.92,active,CG4860,1
-1.63,0.351,0.053,inactive,CG4860,2
-0.0859,-2.37,0.752,inactive,CG12325,1
-1.51,0.811,0.0627,inactive,GstD8,1
-0.674,0.726,-0.196,inactive,GstD8,2
-0.57,0.675,-0.106,inactive,NimB5 + He,1
-0.068,-1.05,0.628,inactive,CG12540,1
0.732,-3.65,1,inactive,spidey,1
0.389,0.881,0.295,inactive,spidey,2
0.529,0.591,0.856,inactive,Tat,1
1.19,0.0393,-0.481,inactive,CG1785,1
0.716,-0.583,-0.362,inactive,CG1785,2
0.0325,0.337,0.19,inactive,unc-119,1
-3.24,0.181,-0.626,inactive,unc-119,2
-0.605,1.72,1.73,active,CHOp24,1
0.344,0.694,-0.342,inactive,CG11158,1
-0.9,0.548,0.298,inactive,Spn28Dc,1
-0.152,-5.99,-0.845,inactive,Or67c,1
0.528,2.32,-0.0182,inactive,CG9582,1
0.29,-1.48,-0.0424,inactive,Agpat2,1
-0.928,0.317,-0.828,inactive,Agpat2,2
-0.978,0.395,1.29,inactive,Hsc70-1,1
-0.174,-0.551,-0.233,inactive,Hsc70-1,2
0.264,-0.357,0.904,inactive,mon2,1
-2.61,0.0642,0.647,inactive,CG31955,1
0.773,-0.838,-0.144,inactive,Cad99C,1
0.287,1.14,-1.04,inactive,Cad99C,2
-0.675,0.139,1.09,inactive,ValRS-m,1
-1.03,-0.439,-1.85,inactive,Shmt,1
0.309,0.693,-0.0354,inactive,CG15124,1
0.972,0.656,0.675,inactive,GluRIIA,1
0.00481,-0.86,-0.622,inactive,CG13965,1
-3.1,-2.36,0.292,active,CG33521,1
0.032,-0.189,-0.107,inactive,CG33521,2
-0.565,-0.793,0.194,inactive,CG33521,3
0.0839,-0.145,-1.96,inactive,thoc5,1
-2.27,0.653,2.48,inactive,dia,1
0.0378,0.432,1.29,inactive,dia,2
-3,-0.625,2.5,inactive,Rab9D + Rab9E + Rab9Db + 1 more,1
0.124,-0.412,1.12,inactive,CG10395 + IFT20,1
0.977,0.572,0.437,inactive,CG5510,1
-1.2,0.505,0.0373,inactive,Sems,1
-1.7,-0.0946,-1.76,inactive,Sems,2
-0.0741,0.364,-0.0579,inactive,CG31464,1
0.268,-0.0186,0.35,inactive,CG15084,1
0.952,-0.118,0.337,inactive,CG15084,2
0.0989,-0.54,-1.26,inactive,CG15084,3
0.114,-0.319,0.103,inactive,fs(1)h,1
2.17,2.39,1.51,active,fs(1)h,2
-1.4,-1.42,-2.76,inactive,CG7044,1
-2.23,-0.813,-1.27,inactive,mus101,1
-0.792,1.83,0.723,inactive,CG44433 + CG44434 + CG44435,1
0.611,-0.935,-3.25,inactive,CG13010,1
0.471,-0.314,0.322,inactive,CG13010,2
0.149,-3.33,-0.592,inactive,Osi7,1
-5.11,0.257,-0.029,inactive,Osi7,2
0.856,-0.529,-1.96,inactive,betaNACtes4,1
-0.745,-1.68,-0.767,inactive,CG5783,1

Called active, of those listed so far:
"Wolbachia per cell robust z, rep 1","Wolbachia per cell robust z, rep 2","Wolbachia per cell robust z, rep 3",activity call,predicted target,reagent
-4.29,0.91,-2.92,active,CG4860,1
-0.605,1.72,1.73,active,CHOp24,1
-3.1,-2.36,0.292,active,CG33521,1
2.17,2.39,1.51,active,fs(1)h,2
